PubChem BioAssay AID1259414, Drosophila RNAi Screening Center – 2018

Test: 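Fly genes that alter Wolbachia amount inside host cells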 (primary screen)
Cell system: Drosophila JW18 cells infected with Wolbachia
Knock-down reagent: long dsRNA against Drosophila genes, 0.25 µg dsRNA per well of a 384-well plate
Time to read-out: 5 days
Conditions: cells persistently infected with Wolbachia before knock-down; no added drug
Measured: 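Automated imaging of bacterial rRNA staining divided by host cell count, reported as plate-normalised robust z-score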
Reading the numbers: Wolbachia per cell robust z: higher = more Wolbachia per host cell than the plate typical
Rule for the call: 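Hit when robust z is 1.5 or more, or -1.5 or less, in at least two of three replicates; excludes dsRNAs with several or no targets, genes not expressed in JW18 and well A1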
The deposit covers about 24,000 reagents; shown is an unselected part of those that have a named target and a result. Of all reagents, about 1,210 (5%) were called active. 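Inactive calls also include excluded dsRNAs with several or no targets, genes unexpressed in JW18, and well A1, regardless of score.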 Unmarked entries are inactive.

The first 4 entries, ahead of the listing:
target gene | DRSC id | Wolbachia per cell robust z, rep 1 | Wolbachia per cell robust z, rep 2 | Wolbachia per cell robust z, rep 3
TwdlN | DRSC25037 | -0.266 | 1.58 | 0.688
lectin-37Da | DRSC03278 | 0.111 | 0.0647 | 0.552
lectin-37Da | DRSC22729 | 0.249 | 0.467 | 0.338
Pp2B-14D | DRSC20270 | 1.98 | 0.823 | 0.471

Main list, repeating the preview:
target gene | DRSC id | Wolbachia per cell robust z, rep 1 | Wolbachia per cell robust z, rep 2 | Wolbachia per cell robust z, rep 3
TwdlN | DRSC25037 | -0.266 | 1.58 | 0.688
lectin-37Da | DRSC03278 | 0.111 | 0.0647 | 0.552
lectin-37Da | DRSC22729 | 0.249 | 0.467 | 0.338
Pp2B-14D | DRSC20270 | 1.98 | 0.823 | 0.471
Pp2B-14D | DRSC23315 | -2.9 (active) | -3.56 | 0.54
Adgf-A2 | DRSC09507 | 0.508 | 0.0631 | -0.295
Mpc1 | DRSC14770 | -0.454 | 0.857 | -0.208
CG15330 | DRSC18014 | 0.266 | 0.945 | 0.955
DCTN4-p62 | DRSC06101 | -0.165 | -0.0103 | -0.99
DCTN4-p62 | DRSC27900 | 0.707 | 1.07 | -0.758
Spn28Db | DRSC22033 | 0.369 | -1.94 | -0.695
eIF2D | DRSC13916 | -2.28 | -4.68 | -1.49
Bcs1 | DRSC02789 | -1.18 | 0.87 | 0.121
Sgs5bis | DRSC16263 | -2.48 | 0.975 | 0.563
Pabp2 | DRSC07501 | 0.599 | 1.3 | 0.607
eIF4H2 | DRSC14582 | -0.137 | -0.337 | 0.275
eIF4H2 | DRSC27363 | 0.306 | 0.491 | 0.151
Hex-C | DRSC07079 | 0.933 | -1.34 | 1.16
Hex-C | DRSC24095 | -0.314 | -0.292 | -1.69
CG10764 | DRSC06000 | -1.34 | -0.675 | -1.69
Edg84A | DRSC12594 | -0.29 | -1.42 | -0.708
CG31643 | DRSC00906 | -0.281 | -0.85 | -0.631
CG31643 | DRSC41452 | 0.238 | -1.9 | 0.636
RhoGAP16F | DRSC20025 | -0.155 | 0.852 | 0.194
Oat | DRSC11043 | -0.0234 | 0.981 | -0.921
Ddx1 | DRSC11862 | 0.205 | -0.0152 | 0.083
CG3808 | DRSC10377 | -1.07 | 0.741 | 1.09
CG17032 | DRSC10241 | -0.422 | -0.183 | 1.08
Gfat2 | DRSC14598 | -0.654 | -1.4 | -8.49
Gfat2 | DRSC26948 | 0.0732 | -0.118 | -1.82
CG15537 | DRSC15073 | -3.47 | 0.313 | 0.971
CG15537 | DRSC25589 | -0.0416 | 1.12 | 0.721
Panx | DRSC04563 | -0.0217 | 0.894 | 0.258
wuho | DRSC18101 | 0.196 | 0.311 | -0.268
wuho | DRSC27950 | -0.73 | -0.444 | -0.601
CG2604 | DRSC12313 | 0.94 | 0.0786 | 0.812
CG2604 | DRSC29919 | -0.859 | -1.08 | -8.85
Map60 | DRSC07464 | 0.212 | -0.709 | -1.74
CG4563 | DRSC04474 | 0.428 | -0.834 | 0.987
CG15369 | DRSC18041 | -0.122 | 0.388 | -0.682
JYalpha | DRSC17224 | 0.979 | 1.31 | 1.39
JYalpha | DRSC21700 | 0.899 | 0.162 | -0.0554
yellow-b | DRSC03639 | 0.0763 | -0.795 | 0.34
Ice1 | DRSC04191 | 1.74 (active) | 1.39 | 1.53
Ice1 | DRSC23585 | 0.178 | -0.737 | -0.102
Hsc70-1 | DRSC11185 | -0.978 | 0.395 | 1.29
Hsc70-1 | DRSC25201 | -0.174 | -0.551 | -0.233
